Measured values taken from patent publication US20220193124A1, “Therapeutic Agent for Flavivirus Infection” (NEOPHARMA JAPAN CO., LTD., priority 2019, published 2022).

Test system: cells infected with the dengue virus type-2 New Guinea C strain (DENV2 NGC)
Experiment: Cell toxicity in dengue virus infected cells, optical microscope observation
Conditions: 0.2 mM; treated for 2 days; FIG. 18

## Cl.NCC(=O)CCC(=O)O [5-ALA, 5-aminolevulinic acid hydrochloride]
  cell toxicity (detachment of cells): did not show detachment
